Publication PMC3258218, “Assembly and proteolytic processing of mycobacterial ClpP1 and ClpP2” (BMC Biochemistry, 2011)

B1: ClpP1 variant starting with Leu16, C-terminal (His)6 tag (domain or fragment)
chain: not shown
notes: ClpP1 (Rv2461c), Mycobacterium tuberculosis H37Rv, ORF starting at Leu16 (first 15 residues absent); also called ClpP1L16; L16
B2: ClpP2 variant starting with Tyr14, C-terminal (His)6 tag (domain or fragment)
chain: not shown
notes: ClpP2 (Rv2460c), Mycobacterium tuberculosis H37Rv, ORF starting at Tyr14; also called ClpP2Y14; Y14

Legend:
[1] = biological target: the molecule itself; assay: SEC-MALS; SEC-TDA: Superdex 200 with triple detector array (static light scattering at 7° and 90°, refractometer, photometer, viscometer), 25 mM Tris-HCl pH 7.5, 150 mM KCl, 1 mM β-mercaptoethanol, 20°C; 200 μg loaded
[2] = biological target: the molecule itself; assay: SEC; processed (N-terminally truncated) ClpP1 and ClpP2 variants; data not shown

Row | Protein | stoichiometry N [1] | stoichiometry N [2]
1 | B1 | 7 | –
2 | B2 | – | 21
